Pooled drug test results. Numbers come from NIAID ChemDB, via PubChem.

Shared fields: toxicity to cultured cells; measure: CC50

Conditions beyond the fields shown may differ between rows.

compound,read by,cell line,value
Nc1ccn([C@H]2CC[C@@H](CO)O2)c(=O)n1,,U-937,5 µM
CO[C@H]1/C=C/O[C@@]2(C)Oc3c(C)c(O)c4c(O)c(c(/C=N/N5CCN(C)CC5)c(O)c4c3C2=O)NC(=O)/C(C)=C\C=C\[C@H](C)[C@H](O)[C@@H](C)[C@@H](O)[C@@H](C)[C@H](OC(C)=O)[C@@H]1C,MTT,Huh7 cells,>50 µg/mL
CCOC(=O)C(CCSC[C@H]1O[C@@H](n2ccc3c(N)ncnc32)[C@H](O)[C@@H]1O)NC(=O)COC,,PRK/E6SM,>200 µg/mL
O=C1c2ccncc2C(=O)N1CCNC(=S)Nc1ccc(Br)cn1,,NSO,14 µM
O=c1[nH]c(=O)n([C@H]2O[C@@H](CO)C[C@H]2F)cc1Br,,PBM,>100 µM
Nc1nc(F)nc2c1ncn2/C=C1\CC1CO,,DAUDI,>50 µM
N#Cc1c(N)n(COCCO)c2ncnc(N)c12,visual reading,HFF,>100 µM
Nc1nc(N)c2nnn(C[C@@H](CO)OCP(=O)(O)O)c2n1,,HSB-2,>300 µM
CCCOC(=O)C(N)CCSC[C@H]1O[C@@H](n2ccc3c(N)ncnc32)[C@H](O)[C@@H]1O,,PRK/E6SM,400 µg/mL
O=c1c2cccn2c2cccc(F)c2n1CCNC(=S)Nc1ccc(Br)cn1,,NSO,980 µM
Cc1cn([C@H]2O[C@@H](CO)C[C@H]2F)c(=O)nc1N,,PBM,>100 µM
Cc1cn([C@H]2C[C@H](O)[C@@](C#N)(COP(=O)(O)OP(=O)(O)OP(=O)(O)O)C2)c(=O)[nH]c1=O,luminescence,MT4-GFP,>42 µM
CC(C)OC(=O)C(CCSC[C@H]1O[C@@H](n2ccc3c(N)ncnc32)[C@H](O)[C@@H]1O)NC(=O)C(F)(F)F,,PRK/E6SM,200 µg/mL
COc1cc(/C=C/C(=O)O)cc(O)c1O,XTT,McCoy fibroblast cells,132.5 µg/mL
CC(C)CNc1ncnc2c1ncn2CCOCP(=O)(O)O,,P3HR-1,>100 µg/mL
Cc1c(O)cccc1C(=O)N[C@@H](CSc1ccccc1)[C@H](O)CN1C[C@H]2CCCC[C@H]2C[C@H]1C(=O)NC(C)(C)C,,HCT-8,>250 µg/mL
Nc1nc(N)c2ncn(C[C@@H](CO)OCP(=O)(O)O)c2n1,,HSB-2,404 µM
Nc1nc(N)c2ncn(C[C@@H](CO)OCP(=O)(O)O)c2n1,,C3,>200 µM
CCCc1cccc(N/C(SC)=C(\C#N)S(=O)(=O)c2ccccc2)c1,MTT / absorbance,HeLa,26.3 µM
Cc1cn([C@H]2C[C@H](N=[N+]=[N-])[C@@H](CO)O2)c(=O)[nH]c1=O,,C3,10 µM
COc1cc([C@@H]2c3cc4c(cc3[C@H](OC(C)=O)[C@@H]3COC(=O)[C@@H]23)OCO4)cc2c1OC1(N3CCOCC3)CCCCC1O2,,P-388,4.33 µM
CC(=O)O[C@@H](/C=C(\C)C(=O)O)C[C@@H](C)[C@H]1CC[C@@]2(C)C3CC[C@H]4C(C)(C)C(=O)CC[C@]4(C)C3=CC[C@]12C,,P-388,16.36 µM
COC(=S)P(=S)(OC)OC,,BCBL-1,>200 µM
NC(=O)c1c(N)n([C@@H]2O[C@H](CO)[C@@H](O)[C@H]2O)c2ncnc(N)c12,visual reading,HFF,7 µM
CCOC(=O)c1ccc2c(c1)nc(-c1ccc(Br)cc1)n2CCN1CCCC1=O,MTT,Vero cell,>62.5 µg/mL
Nc1ccn([C@H]2O[C@@H](CO)C[C@H]2F)c(=O)n1,,PBM,>100 µM
S=C(NCCN1CCCC1)Nc1ccc(Br)cn1,,HUMAN SPERM,>500 µM
CSc1ccccc1NC(=O)NC1N=C(c2ccccc2)c2ccccc2NC1=O,,HEP-2,2 µM
Cc1ccc(Nc2c[nH]c(=O)[nH]c2=O)cc1,MTT,Vero cells,>50 µg/mL
COC(=S)P(=O)([O-])OC,,BCBL-1,>200 µM
COc1cc([C@@H]2c3cc4c(cc3[C@H](OC(C)=O)[C@@H]3COC(=O)[C@@H]23)OCO4)cc2nc3ccccc3nc12,,HT-29,1 µM
Nc1[nH]c(=O)nc2c1ncn2/C=C1/C[C@@H]1CO,,H-1,61 µM
N[C@@H]1CONC1=O,MTT,Vero cell,>62.5 µg/mL
Cc1cn([C@H]2C[C@H](N=[N+]=[N-])[C@@H](COC(=O)CNC(=O)c3cnccn3)O2)c(=O)[nH]c1=O,XTT,CEM,828 µM
COc1ccccc1CCNC(=S)Nc1ccc(Br)cn1,,HUMAN SPERM,>500 µM
CCOC(=O)c1ccc2c(c1)nc(-c1cccc(-c3ccc(F)cc3)c1)n2CCN1CCCC1=O,MTT,Vero cell,>62.5 µg/mL
O=P(O)(O)COCCn1cnc2c(NC3CCCCC3)ncnc21,,P3HR-1,>100 µg/mL
COc1cc([C@@H]2c3cc4c(cc3[C@H](OC(C)=O)[C@@H]3COC(=O)[C@H]23)OCO4)cc(OC)c1O,,MEL-28,0.23 µM
COc1cc2c(cc1O)CCN1CC=C3C=C[C@H](OC)C[C@]321,MTT,HEP-2,19.9 µg/mL
COc1cccc(N/C(SC)=C(\C#N)S(=O)(=O)c2ccccc2)c1,MTT / absorbance,HeLa,>30 µM
Cc1cn([C@H]2C[C@H](N=[N+]=[N-])[C@@H](COP(=O)(O)OC[C@@H]3CC[C@H](n4cnc5c(=O)[nH]cnc54)O3)O2)c(=O)[nH]c1=O,,BFU-E,1.41 µM
N#Cc1c(Br)n(COCCO)c2ncnc(N)c12,visual reading,HFF,100 µM
CSC(=S)P(=O)([O-])SC,,BCBL-1,>200 µM
CCCS/C(Nc1cccc(C(F)(F)F)c1)=C(/C#N)S(=O)(=O)c1ccccc1,MTT / absorbance,HeLa,1.47 µM
O=c1[nH]c(=O)n(C2OC(CO)CC2F)cc1I,,PBM,>100 µM
CS/C(Nc1cc(C(F)(F)F)cc(C(F)(F)F)c1)=C(/C#N)S(=O)(=O)c1ccccc1,MTT / absorbance,HeLa,>100 µM
C=CCNc1ncnc2c1ncn2CCOCP(=O)(O)O,,P3HR-1,18 µg/mL
CS(=O)(=O)c1ccc(C(=O)NC2N=C(c3ccccc3)c3ccccc3NC2=O)c(Cl)c1,,HEP-2,1.5 µM
C=C[C@@H](CO)[C@H](C)Cn1cnc2c(=O)[nH]c(N)nc21,,MT-4 (T-CELL),<5.02 µg/mL
CS/C(Nc1cccc(C(C)C)c1)=C(/C#N)S(=O)(=O)c1ccccc1,MTT / absorbance,HeLa,18.2 µM
C=C[C@]1(C)C=C2C(=O)c3c(NC=O)cccc3C(C)(C)[C@H]2C[C@H]1O,,IMR90,>100 µM
S=C(NCCc1ccc(Br)cc1)Nc1ccc(Br)cn1,,HUMAN SPERM,>500 µM
C/C(=C\C=C\[C@@H](C)[C@H]1CC[C@@]2(C)C3CC[C@H]4C(C)(C)C(=O)CC[C@]4(C)[C@@]3(O)[C@@H](O)C[C@]12C)C(=O)O,XTT / absorbance,1A2,33.16 µM
S=C(NCCc1ccccc1Cl)Nc1ccc(Br)cn1,,HUMAN SPERM,70 µM
COc1cccc(C2(c3ccccc3)NC(NC(=O)C3CCCCC3)C(=O)Nc3ccccc32)c1,,HEP-2,2 µM
C/C(=C\CC[C@@H](C)C1CC[C@@]2(C)[C@@H]3CC[C@H]4C(C)(C)C(=O)CC[C@]4(C)[C@@]3(O)CC[C@]12C)C(=O)O,XTT / absorbance,1A2,37.56 µM
CCCCCCCCCCCCCCOC(=O)P(=O)([O-])OC,,BCBL-1,>63.4 µM
Nc1ncnc2c([C@H]3CC[C@@H](CCl)O3)[nH]nc12,,PRK/E6SM,>400 µg/mL
CCOC(=O)c1ccc2c(c1)nc(-c1ccc(N3CCOCC3)cc1)n2CCN1CCCC1=O,MTT,Vero cell,>62.5 µg/mL
O=C(NC1NC(c2ccccc2)(c2cccc(Cl)c2)c2ccccc2NC1=O)c1ccncc1,,HEP-2,10 µM
COP(=O)(OC)C(=S)SC,,BCBL-1,>200 µM
S=C(NCCc1ccccc1)Nc1ccc(Br)cn1,,HUMAN SPERM,361 µM
Nc1ncnc2c1ncn2C[C@@H](CO)OCP(=O)(O)O,,HSB-2,46 µM
CO[C@H]1C=CC2=CC(=O)N3CCc4cc5c(cc4[C@]23C1)OCO5,MTT,HEP-2,18.5 µg/mL
CCOC(=O)c1ccc2nc(-c3ccccc3)[nH]c2c1,MTT,Vero cell,>62.5 µg/mL
N#Cc1c(N)n(COC(CO)CO)c2ncnc(N)c12,visual reading,HFF,>100 µM
Nc1ncnc2c1ncn2CCOCP(=O)(O)O,,P3HR-1,100 µg/mL
CCOC(=O)C(CCSC[C@H]1O[C@@H](n2ccc3c(N)ncnc32)[C@H](O)[C@@H]1O)NC(=O)C(F)(F)F,,PRK/E6SM,100 µg/mL
COC(=O)c1cccc(N/C(SC)=C(\C#N)S(=O)(=O)c2ccccc2)c1,MTT / absorbance,HeLa,5.67 µM
COc1cc([C@@H]2c3cc4c(cc3[C@H](OC(C)=O)[C@@H]3COC(=O)[C@@H]23)OCO4)cc2nccnc12,,MEL-28,0.56 µM
CC[C@@H](CO)NCCN[C@@H](CC)CO,MTT,Vero cell,>62.5 µg/mL
Cc1cn([C@H]2C[C@H](N=[N+]=[N-])[C@@H](COC(=O)CN3CCN(c4cc5c(cc4F)c(=O)c(C(=O)O)cn5C4CC4)CC3)O2)c(=O)[nH]c1=O,XTT,CEM,144 µM
Cc1cccc(C)c1NC(=O)NC1N=C(c2ccccc2)c2ccccc2NC1=O,,HEP-2,6 µM
COc1cc(O)c2c(=O)oc3cc(O)cc(C)c3c2c1,XTT / absorbance,HEK293T,392.3 µM
O=C1C(=O)c2ccccc2C(O)=C1C1CCC(c2ccc(Cl)cc2)CC1,MTT,Human fibroblast 2C4,1360 µM
CCOC(=O)c1ccc2nc(C3C(c4ccccc4)C(=O)C3c3ccc(OC)cc3)[nH]c2c1,MTT,Vero cell,>62.5 µg/mL
Nc1nc2c(ncn2CC[C@@H](O)CO)c(=O)[nH]1,,HSB-2,277 µM
CC[C@@]1(O)C(=O)OCc2c1cc1n(c2=O)Cc2cc3ccccc3nc2-1,,NCI-H460,0.002 µM
O=c1c(Nc2ccccc2)cn(C2C=CC(O)C2)c(=O)n1C1C=CC(O)C1,MTT,A549 cells,>50 µg/mL
S=C(NCCc1ccc(Cl)cc1)Nc1ccc(Br)cn1,,HUMAN SPERM,160 µM
Nc1ncnc2c1ncn2[C@@H]1O[C@H](CO)C[C@H]1O,,PRK/E6SM,100 µg/mL
COP(=O)([O-])C(=S)SC,,BCBL-1,>200 µM
O=c1[nH]c(=O)n([C@@H]2O[C@@H](CO)C[C@H]2F)cc1Cl,,PBM,>100 µM
CCCCOc1ccc(Nc2cn(C3C=CC(O)C3)c(=O)n(C3C=CC(O)C3)c2=O)cc1,MTT,A549 cells,>50 µg/mL
CN(O)C(=O)CC(c1ccccc1)P(=O)(O)O,fluorescence,MRC-5,>64 µM
Nc1nc(N)c2ncn(C[C@@H](CF)OCP(=O)(O)O)c2n1,,P3HR-1,>100 µg/mL
Nc1nc2c(ncn2[C@H]2O[C@@H](CO)C[C@H]2F)c(=O)[nH]1,,PBM,>100 µM
O=C(CCC(c1ccccc1)P(=O)(O)O)NO,fluorescence,MRC-5,>59 µM
NC(=S)c1c(N)n(COCCO)c2ncnc(N)c12,visual reading,HFF,>100 µM

8 of the rows above, restated:

| compound | read by | cell line | value |
|---|---|---|---|
| CS/C(Nc1cc(C(F)(F)F)cc(C(F)(F)F)c1)=C(/C#N)S(=O)(=O)c1ccccc1 | MTT / absorbance | HeLa | >100 µM |
| CC[C@@H](CO)NCCN[C@@H](CC)CO | MTT | Vero cell | >62.5 µg/mL |
| N[C@@H]1CONC1=O | MTT | Vero cell | >62.5 µg/mL |
| CCCc1cccc(N/C(SC)=C(\C#N)S(=O)(=O)c2ccccc2)c1 | MTT / absorbance | HeLa | 26.3 µM |
| COc1cc([C@@H]2c3cc4c(cc3[C@H](OC(C)=O)[C@@H]3COC(=O)[C@@H]23)OCO4)cc2nc3ccccc3nc12 |  | HT-29 | 1 µM |
| Nc1nc2c(ncn2CC[C@@H](O)CO)c(=O)[nH]1 |  | HSB-2 | 277 µM |
| O=P(O)(O)COCCn1cnc2c(NC3CCCCC3)ncnc21 |  | P3HR-1 | >100 µg/mL |
| S=C(NCCc1ccc(Cl)cc1)Nc1ccc(Br)cn1 |  | HUMAN SPERM | 160 µM |

An empty or dashed field is not shown. CCn is the concentration with n% toxicity to the cells.